Compound potency records, mixed from different reports. Data source: NIAID ChemDB in PubChem.

Common to all: tests on isolated targets; organism: HIV-1; target: Reverse transcriptase; endpoint: Ki

An empty or dashed field is not shown. Rows are shuffled and stem from different studies.

structure	method	strain	mutations	result
Nc1nc2c(ncn2[C@H]2CC[C@@H](COP(=O)(O)OP(=O)(O)OP(=O)(O)O)O2)c(=O)[nH]1	nucleotide incorporation	LAV	-	0.07 µM
Nc1ncnc2c1ncn2[C@@H]1CC[C@H](COP(=O)(O)OP(=O)(O)OP(=O)(O)O)O1	-	-	-	2 µM
O=C(/C=C/c1ccc(O)c2c1[C@H](C(=O)O)[C@@H](c1ccc(O)c(O)c1)O2)O[C@H](Cc1ccc(O)c(O)c1)C(=O)O	nucleotide incorporation	-	-	0.8 µM
O=C(CSc1nc2c(ncn2[C@H]2C[C@H](O)[C@@H](COP(=O)(O)OP(=O)(O)OP(=O)(O)O)O2)c2nccn12)Cc1ccccc1	radiometric	-	-	6 µM
CCOC(=O)c1c(C(C)C)c(C#N)c(=N)n2ccccc12	RT activity	LAV	-	64.5 µM
O=c1ccn(C2C=CC(OP(=O)(O)Cc3ccccc3)C2)c(=O)[nH]1	RT activity	-	-	>100 µM
COc1c(C)c(O)c(C(C)=O)c(O)c1Cc1c(O)c(CC=C(C)C)c(O)c(C(C)=O)c1O	RT activity	-	-	6.1 µM
Cc1c(Cc2ccccc2)nc(NCCCCN)[nH]c1=O	-	-	RT-K103N	>1000 µM
[N-]=[N+]=Nc1ccc(C(=O)CSc2nc3c(ncn3[C@H]3C[C@H](O)[C@@H](COP(=O)(O)OP(=O)(O)OP(=O)(O)O)O3)c3nccn23)cc1	radiometric	-	-	10 µM
Nc1ccn([C@@H]2O[C@H](CO)C[C@@H]2F)c(=O)n1	-	-	-	0.27 µM
Nc1nc2c(ncn2[C@H]2C=C[C@@H](COP(=O)(O)OP(=O)(O)OP(=O)(O)O)C2)c(=O)[nH]1	RT activity / binding	-	-	1.7 µM
Cc1c(Cc2ccccc2)nc(SCCCCO)[nH]c1=O	-	-	RT-V179D	115 µM
C#CC(O)/C=C/C/C=C/C=C/C=C/CC#CC(O)C#CC/C=C/C=C/C=C/CC(O)C#C	radiometric	-	-	0.513 µM
CC(CC12CC3CC(CC(C3)C1)C2)Nc1nc2c([nH]1)c(=O)n(C)c(=O)n2C	RT activity / radiometric	-	-	>200 µM
Nc1ccn([C@@H]2CS[C@H](COP(=O)(O)OP(=O)(O)OP(=O)(O)O)O2)c(=O)n1	radiometric	WT	-	0.233 µM
Nc1ccn([C@H]2CC[C@@H](COP(=O)(O)OP(=O)(O)OP(=O)(O)O)O2)c(=O)n1	-	-	-	0.08 µM
CCCCCCCCCCCCCCCC/C=C\CCC#CCCC(=O)O[C@H](C)C[C@H](CCC[C@@](C)(O)CC(=O)NCCS(=O)(=O)O)CC(C)=O	-	-	-	1.5 µM
O=c1cc(Cc2ccccc2)nc(NCCCCO)[nH]1	-	-	RT-Y181L	>1000 µM
Cc1cc(C)cc(S(=O)(=O)c2c(C(=O)NC(C)C(N)=O)[nH]c3ccc(Cl)cc23)c1	nucleotide incorporation / radiometric	WT	-	0.0003 µM
C=CC(C)(C)n1cc(C2=C(O)C(=O)C(c3cn(C(C)(C)C=C)c4ccccc34)=C(O)C2=O)c2ccccc21	binding	-	-	2.3 µM
Cc1cn([C@H]2CC[C@@H](COP(=O)(O)OP(=O)(O)OP(=O)(O)O)O2)c(=O)[nH]c1=O	nucleotide incorporation	LAV	-	0.09 µM
C=Cc1cc(N(CCC)CCC)nc(S(C)(=O)=O)n1	nucleotide incorporation / radiometric	-	RT-Y181I	>400 µM
CSCSc1nc(Cc2ccccc2)c(C)c(=O)[nH]1	scintillation proximity	-	-	3.3 µM
NC(=O)c1[nH]c2ccc(Cl)cc2c1S(=O)(=O)c1ccccc1	nucleotide incorporation / radiometric	WT	-	0.0003 µM
Cc1cc(C)cc(S(=O)(=O)c2c(C(N)=O)[nH]c3ccc(Cl)c(F)c23)c1	RT activity / nucleotide incorporation	-	WT	0.006 µM
CC(=O)Nc1ccc(C(=O)CSc2nc3c(ncn3[C@H]3C[C@H](O)[C@@H](COP(=O)(O)OP(=O)(O)OP(=O)(O)O)O3)c3nccn23)cc1	radiometric	-	-	75 µM
Nc1ccn([C@@H]2CS[C@H](COP(=O)(O)OP(=O)(O)OP(=O)(O)O)O2)c(=O)n1	-	-	-	1 µM
O=c1ccn(C2C=CC(OP(=O)(Cc3ccccc3)OCc3ccccc3)C2)c(=O)n1Cc1ccccc1	RT activity	-	-	>100 µM
Nc1nc(=O)n([C@H]2CS[C@@H](COP(=O)(O)OP(=O)(O)OP(=O)(O)O)O2)cc1F	-	-	-	1.7 µM
CCCCN(CCCC)c1nc(OCCc2ccc([N+](=O)[O-])cc2)c2ncn([C@@H]3O[C@H](COP(O)(=S)O[C@H]4[C@@H](F)[C@H](n5cnc6c(N)ncnc65)O[C@@H]4CO)[C@@H](O)[C@H]3O)c2n1	RT activity	-	-	19.3 µM
Cc1cn([C@H]2CC[C@@H](COP(=O)(O)OP(=O)(O)OP(=O)(O)O)O2)c(=O)[nH]c1=O	nucleotide incorporation / radiometric	-	RT-Q151M	0.075 µM
O=P(O)(O)OP(=O)(O)O	nucleotide incorporation / radiometric	-	RT-Y115F	290 µM
C=Cc1cc(N(C)C)nc(S(C)(=O)=O)n1	nucleotide incorporation / radiometric	-	RT-V179D	0.015 µM
O=c1ccn(C2C=CC(OP(=O)(O)Cc3ccccc3)C2)c(=O)n1Cc1ccccc1	RT activity	-	-	>100 µM
Nc1nc2c(ncn2[C@H]2CC[C@@H](COP(=O)(O)OP(=O)(O)OP(=O)(O)O)O2)c(=O)[nH]1	nucleotide incorporation / radiometric	-	RT-A62V V75I F77L F116Y Q151M	0.052 µM
Nc1ncnc2c1ncn2[C@H]1CC[C@@H](COP(=O)(O)OP(=O)(O)OP(=O)(O)O)O1	nucleotide incorporation	-	RT-K65R	>100 µM
O=C(O[C@@H]1Cc2c(O)cc(O)cc2O[C@@H]1c1cc(O)c(O)c(O)c1)c1cc(O)c(O)c(O)c1	-	-	-	0.0028 µM
Cc1cn([C@H]2C[C@H](O)[C@](COP(=O)(O)OP(=O)(O)OP(=O)(O)O)(N=[N+]=[N-])O2)c(=O)[nH]c1=O	-	-	-	0.0085 µM
CCC(c1nc(N(C)C)[nH]c(=O)c1C)c1c(F)cccc1F	nucleotide incorporation	-	L100I	>20 µM
[B-][P@@](=O)(OC[C@H]1O[C@@H](n2cc(C)c(=O)[nH]c2=O)C[C@@H]1N=[N+]=[N-])OP(=O)(O)OP(=O)(O)O	fluorescence	-	-	0.048 µM
Nc1ncnc2c1ncn2[C@H]1CC[C@@H](COP(=O)(O)OP(=O)(O)OP(=O)(O)O)O1	nucleotide incorporation	LAV	-	5.75 µM
O=C1Cc2ccc(-c3ccco3)cc2C(=O)N1O	RT activity / nucleotide incorporation / absorbance	-	-	0.14 µM

4 of the rows above, restated:

structure,method,strain,mutations,result
CC(=O)Nc1ccc(C(=O)CSc2nc3c(ncn3[C@H]3C[C@H](O)[C@@H](COP(=O)(O)OP(=O)(O)OP(=O)(O)O)O3)c3nccn23)cc1,radiometric,-,-,75 µM
O=c1ccn(C2C=CC(OP(=O)(Cc3ccccc3)OCc3ccccc3)C2)c(=O)n1Cc1ccccc1,RT activity,-,-,>100 µM
O=c1ccn(C2C=CC(OP(=O)(O)Cc3ccccc3)C2)c(=O)[nH]1,RT activity,-,-,>100 µM
Cc1cn([C@H]2C[C@H](O)[C@](COP(=O)(O)OP(=O)(O)OP(=O)(O)O)(N=[N+]=[N-])O2)c(=O)[nH]c1=O,-,-,-,0.0085 µM